The target of this test is CD22 (human) (UniProt P20273). The experiment in a line: cell-based or functional assay.

Turning to HA22-LR, the LC50, 697 cells (ALL) was 0.4 ng/mL; the LC50, CA46 cells (Burkitt) was 0.7 ng/mL; the LC50, EU cells (ALL) is 1 ng/mL; the LC50, KOPN 8 cells (ALL) came to 0.1 ng/mL. The same substance came in with an LC50, NALM 6 cells (ALL) of 1.5 ng/mL; an LC50, RAJI cells (Burkitt) of 0.3 ng/mL; an LC50, REH cells (ALL) of 0.3 ng/mL.

Turning to HA22-LR-8X, the LC50, CA46 cells (Burkitt), second series was 0.6 ng/mL.

In the case of HA22-LR-KDEL, the LC50, CA46 cells (Burkitt) came to 0.3 ng/mL.

Values taken from US20150218286A1.
